Pooled drug test results. Numbers come from NIAID ChemDB, via PubChem.

Common to all: whole-cell or culture tests; species: Cryptosporidium parvum

Inhibition is in % at the dose shown (toxicity tests: loss of growth or viability). An empty or dashed field is not shown. Lines come from different laboratories, so protocols vary. ECn is the concentration giving n% inhibition of infection, replication or growth.

compound,endpoint,cells,dose,read by,strain,value
Nc1ncnc2c1ncn2Cc1c(F)cccc1Cl,inhibition,L929,0.8 µg/mL,,Calf isolate,51.79%
Nc1ncnc2c1ncn2[C@@H]1O[C@H](CO)[C@@H](O)[C@@H]1O,inhibition,,10 µg/mL,,,19%
CCC(=O)CCCCC[C@@H]1NC(=O)[C@H]2CCCCN2C(=O)[C@H](C(C)CC)NC(=O)[C@H](Cc2c[nH]c3ccccc23)NC1=O,MIC,,,,,0.07 µg/mL
CCC(CC)Nc1c([N+](=O)[O-])cc(S(N)(=O)=O)cc1[N+](=O)[O-],EC50,MDCK cells,,ELISA / luminescence,,0.74 µM
CO[C@H]1O[C@@H](n2ccc(=O)[nH]c2=O)C[C@@H]1N=[N+]=[N-],inhibition,,25 µg/mL,,,5%
CCN(CC)CCCC(C)Nc1ccnc2cc(Cl)ccc12,inhibition,L929,0.8 µg/mL,,Calf isolate,35.76%
NC[C@@H]1O[C@H](O[C@H]2[C@@H](O)[C@H](O[C@@H]3[C@@H](O)[C@H](N)C[C@H](N)[C@H]3O[C@H]3O[C@H](CO)[C@@H](O)[C@H](O)[C@H]3N)O[C@@H]2CO)[C@H](N)[C@@H](O)[C@@H]1O,inhibition,,100 µg/mL,,,62%
NC(=O)c1nc[nH]c1C(N)=O,inhibition,L929,0.8 µg/mL,,Human isolate,41.71%
CNC(=O)c1cc([N+](=O)[O-])c(N2CCOCC2)c([N+](=O)[O-])c1,EC50,MDCK cells,,ELISA / luminescence,,49.5 µM
CCC(=O)CCCCC[C@@H]1NC(=O)[C@H]2CCCCN2C(=O)[C@H](C(C)CC)NC(=O)[C@H](Cc2cn(OC)c3ccccc23)NC1=O,MIC,,,,,0.03 µg/mL
O=[N+]([O-])c1cc(C(F)(F)F)cc([N+](=O)[O-])c1N(CCO)CCO,EC50,MDCK cells,,ELISA / luminescence,,11.3 µM
CC(=O)N[C@@H](CC(C)C)C(=O)N[C@@H](CC(C)C)C(=O)N[C@H](C=O)CCCN=C(N)N,inhibition,,500 µg/mL,cell count / microscopy,,56.6%
CCCCN(CCCC)CCC(O)c1cc2c(Cl)cc(Cl)cc2c2cc(C(F)(F)F)ccc12,inhibition,L929,0.032 µg/mL,,Calf isolate,-1.73%
O=[N+]([O-])c1cc(C(F)(F)F)cc([N+](=O)[O-])c1N1COC1,EC50,MDCK cells,,ELISA / luminescence,,6.16 µM
CCc1nc(N)nc(N)c1-c1ccc(Cl)cc1,inhibition,L929,0.032 µg/mL,,Calf isolate,14.05%
O=c1[nH]c(=O)n([C@H]2C[C@H](O)[C@@H](CO)O2)cc1C(F)(F)F,inhibition,,50 µg/mL,,,88%
CCCNc1c([N+](=O)[O-])cc(S(N)(=O)=O)cc1[N+](=O)[O-],EC50,MDCK cells,,ELISA / luminescence,,1.26 µM
Nc1nc2c(ncn2COCCO)c(=O)[nH]1,inhibition,,10 µg/mL,,,6%
CC(C)[C@H](NC(=O)[C@H](CCCN=C(N)N)NC(=O)N[C@@H](Cc1ccccc1)C(=O)O)C(=O)N[C@H](C=O)CCCN=C(N)N,inhibition,,100 µg/mL,,,79.06%

3 of the rows above, restated:

compound	endpoint	cells	dose	read by	strain	value
CCCNc1c([N+](=O)[O-])cc(S(N)(=O)=O)cc1[N+](=O)[O-]	EC50	MDCK cells		ELISA / luminescence		1.26 µM
O=[N+]([O-])c1cc(C(F)(F)F)cc([N+](=O)[O-])c1N(CCO)CCO	EC50	MDCK cells		ELISA / luminescence		11.3 µM
CCC(=O)CCCCC[C@@H]1NC(=O)[C@H]2CCCCN2C(=O)[C@H](C(C)CC)NC(=O)[C@H](Cc2cn(OC)c3ccccc23)NC1=O	MIC					0.03 µg/mL